Experimental data reported in the supplement of paper PMC9931576.
Numbering of substitutions follows the chain as printed. Human monoclonal antibodies against the spike receptor-binding domain (heavy:light variable regions). IC50 against pseudoviruses bearing the spike of naturally observed variants; lower = stronger; >10 µg/ml means not reached at the top dose. No active / inactive call. The stated detection limit is 0.0005 µg/ml; values near or below 0.001 µg/ml lie at the floor of the assay.

B1: BD56-188 (protein)
chain 1: QVQLVQSGAEVKKPGASVKVSCKASGNTFTSYYIHWVRQAPGQGLEWMGIINPSGGSTTYAQKFQGRVTMTSDASTSTVYMTLTSLRSEDTAVYYCARGGVVPAARGEFDYWGQGTLVTVSS
chain 2: DIQMTQSPSTLSASVGDRVTITCRASQSISTWLAWYQQKPGMAPKLLIYKASNLESGVPSRFSGSGSGTEFTLTISSLQPDDFATYYCQQSSSFFYTFGQGTKLEIK
B2: BD56-185 (protein)
chain 1: EVQLVESGGGLVQPGRSLRLSCTASGFTFGVYAMSWVRQAPGKGLEWVGFIRSKAYGGATEYAASVEGRFTISRDDYKNIAYLQMNSLKTEDTAVYYCVRVEQWLSSPQTHGDYFDYWGQGILVTVSS
chain 2: QSALTQPASVSGSPGQSISISCTGTSSDVGGYDYVSWFQQHPGKAPKLMIYDVSNRPSGVSNRFSGSKSGSTASLTISGLQAEDEADYYCSSYTTSSTFVFGSGTRVTVL
B3: BD56-187 (protein)
chain 1: QVQLVQSGAEVKKPGASVKVSCKASGYTFTGYFLYWVRQAPGQGLQWMGRINPNSGDTDYAQKFQGRVTMTRDTSISTAYLEMSRLRSDDTAVYYCAREPGYDILTDSFRDYWGQGTLVTVSS
chain 2: EIVMTQSPATLSVSPGERATLSCRASQSVSNNLAWYQQKPGQAPRLLIYGASTRATGIPARFSGSGSGTEFTLTINSLQSEDFAVYYCQHYNNWPPWTFGQGTKVEIK
B4: BD56-196 (protein)
chain 1: QITLKESGPTLVKPTQTLTLTCTFSGFSLSTSGVGVGWIRQPPGKALEWLALIYWDDDKRYSPSLKSRLTITKDASKNHVVLTMTNMDPVDTATYYCALKDYDGSGRSLNWGYFDYWGQGTLVTVSS
chain 2: DIQMTQSPSSLSASVGDRVTITCRASQSIDIYLNWYQQKRGKAPNLLIYAASSLQNGVPSRFTGSGSGTDFTLTISSLQPEDFATYFCQQSYSNLYTFGQGTKLEIK
B5: BD56-191 (protein)
chain 1: QLVEFGGGLVKPGGSLRLSCAASGFTFSDYYMSWIRQAPGKGLEWLSYISSGGDYIYYGDSVTGRFTVSRDNAKNVLYLQMNSLRADDTAVYYCARGGSLYSSSFEWVADSWGQGTLVTVSS
chain 2: QSVLTQPPSASGTPGRGVTISCSGGSSNIGGNYVSWYQQLPGTAPKLLIYWNTQRPSGVPDRFSGSKSGSSASLAISGLRSEDEADYYCAAWADRLGGPVFGGGTRLTVL
B6: BD56-189 (protein)
chain 1: EDHLVESGGGLVQPGGSLRLSCAASGFTFSSYSMNWVRLAPGKGPEWVSHISSTSANIYYADSVKGRFIISRDNAKQSLYLQMNSLRAEDTAVYFCARDSKTDSSGPSAEWFDPWGQGTLVTVSS
chain 2: SYVLTQPPSVSVAPGKTARITCGGNNIGSKSVHWYQRKPGQAPVVVIFYDSDRPSTIPERFSGSNSGNTATLTINRVEAGDEADYYCQVWDSGVVFGGGTKLTVL
B7: BD56-202 (protein)
chain 1: B6 chain 1 with D2E, T28M, S30N, A56T, Q77K
chain 2: B6 chain 2
B8: DH1143 (protein)
chain 1: QVQLVQSGAEVKKPGASVKVSCKASGYTFTSYYMHWVRQAPGQGLEWMGIITPSGGSTSYAQKFQGRVTMTRDTSTSTVYMELSSLRSEDTALYYCARERVGVGIYSRSSESDFPTFDPWGQGTLVTVSS
chain 2: DIQMTQSPSSLSASVGDTVTITCRASQNINNYLNWYQQKPGKAPKLLIYAASSLQSGVPSRFSGSGSETDFTLTISSLQPEDFATYYCQQSYSTPQYSFGQGTKLEIK
B9: BD56-179 (protein)
chain 1: QVQLVESGGGVVQPGRSLRLSCAVSGFTFSNYGMHWVRQAPGKGLEWVAVMSYDGTNKYYTDSVKGRFTISRDNSKNTLYLQMNSLRAEDTAVYYCARDGEPCSSASCYYSLWPESYMDVWGKGTTVTVSS
chain 2: EIVLTQSPGTLSLSPGERATLSCRASQSVSSTYLAWYQQKPGQAPRLVIYGASSRATGIPDRFSGSGSGTDFTLTISRLEPEDFAVYYCQQYGTSPPFTFGPGTKVDIK
B10: DH1173 (protein)
chain 1: QVQLVQSGAEVKKPGASVKVSCKASGYTFTGYYMHWVRQAPGQGLEWMGWINPNSGATNYAQKFQGWVTMTRDTSINTAYMELRRLKSDDTAVFYCARETSFAIFGGGGMDVWGQGTTVTVSS
chain 2: QSALTQPASVSGSPGQSITISCTGTSSDIGSYNLVSWYQQHPGKAPKLMIYEGSKRPSGVSNRFSGSKSGNTASLTISGLQAEDEADYYCCSYAGSSTYVFGTGTKVTVL
B11: BD56-184 (protein)
chain 1: EVRLVESGGGLVQPGRSLRLSCTASGFTFGAYGMSWVRQAPGKGLEWVGFIRSKAYGGAIEYAASVEGRFTISRDDSKSCAYLQMNSLKTEDTAVYFCIRVDQWLSSPQTHGDIFDYWGQGILVTVSS
chain 2: QSALTQPASVSGSPGQSITISCTGTSSDVGNYDSVSWFQQHPGKAPKLVISDVSNRPSGTSNRFSGSKSGSTASLTISGLQAEDEADYYCSSYTSSSTYVFGTGTKVNVL
B12: DH1161-1 (protein)
chain 1: QVQLVQSGAEVKKPGALLRVSCKASGDTSTNHGISWVRQAPGQGLEWMGWINVYNGRTNYAQKVQGRVTMTTDTSTSTAYMELRSLRSDDTAVYYCARWIHRDFDWLPYGMFMDVWGQGTTVTVSS
chain 2: QSALTQPPSASGSPGQSVTISCTGTSSDVGVYKYVSWYQHHPGKAPKLMVYEVSKRPSGVPDRFSGSKSGNTASLTVSGLQAEDEADYYCTSYEGDNTLVFGGGTKLTVL

target: SARS-CoV-2 Omicron BA.1 spike pseudovirus; experiment: pseudovirus neutralization IC50; higher = weaker neutralization
Description: (§1)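 Single-round VSV luciferase pseudovirus mixed with antibody dilutions for 1 h and put on Huh-7 cells for about a day; IC50 from the dose curve.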

Row | Binder | pseudovirus neutralization IC50
1 | B1 | 2.41 µg/mL
2 | B2 | 9.59 µg/mL
3 | B3 | 0.0035 µg/mL
4 | B4 | 4.49 µg/mL
5 | B5 | > 10 µg/mL
6 | B6 | > 10 µg/mL
7 | B7 | > 10 µg/mL
8 | B8 | > 10 µg/mL
9 | B9 | 7.84 µg/mL
10 | B10 | > 10 µg/mL
11 | B11 | > 10 µg/mL
12 | B12 | > 10 µg/mL

target: SARS-CoV-2 Omicron BA.2 spike pseudovirus; experiment: as above
Description: as §1

Row | Binder | pseudovirus neutralization IC50
13 | B1 | 2.7 µg/mL
14 | B2 | > 10 µg/mL
15 | B3 | 0.00624 µg/mL
16 | B4 | 3.89 µg/mL
17 | B5 | > 10 µg/mL
18 | B6 | > 10 µg/mL
19 | B7 | > 10 µg/mL
20 | B8 | > 10 µg/mL
21 | B9 | > 10 µg/mL
22 | B10 | > 10 µg/mL
23 | B11 | > 10 µg/mL
24 | B12 | > 10 µg/mL

target: SARS-CoV-2 Omicron BA.2.75 spike pseudovirus; experiment: as above
Description: as §1

Row | Binder | pseudovirus neutralization IC50
25 | B1 | 2.34 µg/mL
26 | B2 | > 10 µg/mL
27 | B3 | 0.112 µg/mL
28 | B4 | 3.04 µg/mL
29 | B5 | > 10 µg/mL
30 | B6 | > 10 µg/mL
31 | B7 | > 10 µg/mL
32 | B8 | > 10 µg/mL
33 | B9 | > 10 µg/mL
34 | B10 | > 10 µg/mL
35 | B11 | > 10 µg/mL
36 | B12 | > 10 µg/mL

target: SARS-CoV-2 Omicron BA.5 spike pseudovirus; experiment: as above
Description: as §1

Row | Binder | pseudovirus neutralization IC50
37 | B1 | 4.08 µg/mL
38 | B2 | > 10 µg/mL
39 | B3 | 0.985 µg/mL
40 | B4 | 5.08 µg/mL
41 | B5 | > 10 µg/mL
42 | B6 | > 10 µg/mL
43 | B7 | > 10 µg/mL
44 | B8 | > 10 µg/mL
45 | B9 | > 10 µg/mL
46 | B10 | > 10 µg/mL
47 | B11 | > 10 µg/mL
48 | B12 | > 10 µg/mL

target: SARS-CoV-2 Omicron BQ.1.1 spike pseudovirus; experiment: as above
Description: as §1

Row | Binder | pseudovirus neutralization IC50
49 | B1 | 3.69 µg/mL
50 | B2 | > 10 µg/mL
51 | B3 | > 10 µg/mL
52 | B4 | 2.44 µg/mL
53 | B5 | > 10 µg/mL
54 | B6 | > 10 µg/mL
55 | B7 | > 10 µg/mL
56 | B8 | > 10 µg/mL
57 | B9 | > 10 µg/mL
58 | B10 | > 10 µg/mL
59 | B11 | > 10 µg/mL
60 | B12 | > 10 µg/mL

target: SARS-CoV-2 Omicron XBB spike pseudovirus; experiment: as above
Description: as §1

Row | Binder | pseudovirus neutralization IC50
61 | B1 | 4.47 µg/mL
62 | B2 | > 10 µg/mL
63 | B3 | > 10 µg/mL
64 | B4 | 5.17 µg/mL
65 | B5 | > 10 µg/mL
66 | B6 | > 10 µg/mL
67 | B7 | > 10 µg/mL
68 | B8 | > 10 µg/mL
69 | B9 | > 10 µg/mL
70 | B10 | > 10 µg/mL
71 | B11 | > 10 µg/mL
72 | B12 | > 10 µg/mL

target: SARS-CoV-2 early D614G spike pseudovirus; experiment: as above
Description: as §1

Row | Binder | pseudovirus neutralization IC50
73 | B1 | 2.02 µg/mL
74 | B2 | > 10 µg/mL
75 | B3 | 0.0547 µg/mL
76 | B4 | 5.27 µg/mL
77 | B5 | > 10 µg/mL
78 | B6 | > 10 µg/mL
79 | B7 | > 10 µg/mL
80 | B8 | 0.681 µg/mL
81 | B9 | > 10 µg/mL
82 | B10 | 0.0095 µg/mL
83 | B11 | > 10 µg/mL
84 | B12 | > 10 µg/mL
